Data published in publication PMC4547098, “Structural basis of pathogen recognition by an integrated HMA domain in a plant NLR immune receptor” (2015).

Biological target: AVR-PikA with non-cleavable C-terminal 6xHis tag (pOPINE) (Magnaporthe oryzae) (UniProt C4B8B8)
Assay: SPR

## Pikp-HMA domain (HMA integrated domain of the rice NLR Pikp-1) (from UniProt E9KPB5 186-258) (domain or fragment)
  Kd: 0.71 µM
